Results deposited as PubChem BioAssay AID1259414 (Drosophila RNAi Screening Center, 2018).

- Purpose: 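Fly genes that alter Wolbachia amount inside host cells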 (primary screen)
- Cells: Drosophila JW18 cells infected with Wolbachia
- Reagents: long dsRNA against Drosophila genes, 0.25 µg dsRNA per well of a 384-well plate
- Time to read-out: 5 days
- Conditions: cells persistently infected with Wolbachia before knock-down; no added drug
- Measured: 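Automated imaging of bacterial rRNA staining divided by host cell count, reported as plate-normalised robust z-score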
- Direction: Wolbachia per cell robust z: higher = more Wolbachia per host cell than the plate typical
- Active means: 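Active if absolute robust z reaches 1.5 in two or more of three replicates, leaving out multi- or no-target dsRNAs, genes unexpressed in JW18 and A1 wells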
In all, the deposit lists about 24,000 reagents; shown is an unselected part of those that have a named target and a result. In the full data, about 1,210 (5%) were called active. 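Inactive calls also include excluded dsRNAs with several or no targets, genes unexpressed in JW18, and well A1, regardless of score.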 Entries without a mark were called inactive. Names joined by + are all predicted targets of the reagent. No sequences are given here.

| target gene | dsRNA | Wolbachia per cell robust z, rep 1 | Wolbachia per cell robust z, rep 2 | Wolbachia per cell robust z, rep 3 |
| --- | --- | --- | --- | --- |
| ninaG | DRSC16102 | 0.507 | -3.96 | -0.399 |
| wdn | DRSC17095 | -8.68 | 0.199 | 0.307 |
| wdn | DRSC29088 | 1.49 | 0.84 | 1.27 |
| eIF2Bepsilon | DRSC18769 | -0.00468 | -0.0577 | -1.52 |
| RpS14a | DRSC18710 | 2.11 | 2.47 | 2.98 |
| SA1 | DRSC03424 | 0.639 | 1.27 | 0.8 |
| SA1 | DRSC28222 | 2.83 | -0.228 | 0.849 |
| Lrrk | DRSC15816 | 0.292 | 0.264 | 0.384 |
| Lrrk | DRSC21971 | 1.17 | 0.788 | 1.08 |
| Lrrk | DRSC26140 | 0.133 | 0.145 | -0.953 |
| Mnn1 | DRSC03368 | -0.714 | -1.77 | -0.327 |
| Dnaaf3 | DRSC06684 | 0.368 | -0.159 | -0.468 |
| CG7365 | DRSC10824 | -1.17 | -6.93 | -0.707 |
| CG7365 | DRSC28680 | 0.0349 | -0.0952 | 0.163 |
| Lcp65Ab1 + Lcp65Ab2 | DRSC10343 | -0.0703 | -0.428 | 0.38 |
| Lcp65Ab1 + Lcp65Ab2 | DRSC29739 | 0.473 | 0.408 | -6.58 |
| Tim17a2 | DRSC12252 | 0.709 | 0.341 | 0.37 |
| Tim17a2 | DRSC23837 | 0.725 | -0.349 | 0.65 |
| cm | DRSC41297 | 0.452 | 0.551 | 0.326 |
| PIG-H | DRSC14856 | 0.275 | -12.4 | 0.0161 |
| gammaSnap1 | DRSC04686 | 0.264 | -0.18 | -0.361 |
| gammaSnap1 | DRSC28381 | 0.339 | 0.634 | -0.931 |
| gammaSnap1 | DRSC38987 | 0.484 | -0.336 | -0.902 |
| CG12708 + CG15646 | DRSC23549 | -0.638 | 0.481 | 0.226 |
| CG6168 | DRSC10596 | -0.333 | -0.806 | -0.936 |
| lectin-37Da | DRSC03278 | 0.111 | 0.0647 | 0.552 |
| lectin-37Da | DRSC22729 | 0.249 | 0.467 | 0.338 |
| CG15435 | DRSC00450 | -5.54 | 0.871 | 0.987 |
| CG15435 | DRSC27701 | -0.318 | 1.1 | 0.823 |
| CG9861 | DRSC04576 | -0.333 | -0.0567 | -0.154 |
| CG9861 | DRSC28876 | -2.8 | -0.911 | -1.01 |
| Jon99Cii | DRSC16858 | 0.498 | -4.16 | -1.59 |
| Jon99Cii | DRSC22574 | 0.43 | 0.96 | 0.802 |
| CG15093 | DRSC06522 | -0.059 | -0.909 | -0.542 |
| CG15093 | DRSC24576 | 1.47 | 1.19 | -4.9 |
| MME1 | DRSC02714 | -0.819 | 0.0834 | -0.86 |
| CG14088 | DRSC10092 | -1.11 | 0.103 | -0.485 |
| Nuak | DRSC14414 | -0.294 (active) | -7.51 | -4.08 |
| Nuak | DRSC14415 | 1.13 | 0.76 | 0.485 |
| Nuak | DRSC14416 | -4.83 (active) | -0.398 | -6.73 |
| CG9083 + Tpc2 | DRSC04625 | 1.26 | 0.487 | -0.13 |
| CG7860 | DRSC20060 | 1.09 | 0.364 | 0.215 |
| CG7860 | DRSC41530 | 0.268 | -1.95 | 0.545 |
| Taf1 | DRSC12607 | -1.12 | 0.778 | 0.375 |
| Taf1 | DRSC29806 | -1.06 | -0.0959 | 0.847 |
| gwl | DRSC16305 | 0.771 | 0.105 | 1.81 |
| CG17242 | DRSC00493 | 0.571 | 0.161 | 0.276 |
| CG5895 | DRSC10554 | 0.995 | 0.421 | 0.135 |
| Nup50 | DRSC06827 | -0.0519 | -0.323 | -0.00666 |
| Nup50 | DRSC26470 | 0.0563 | 0.318 | -3.42 |
| CG13054 | DRSC09935 | -0.591 | 1.26 | 0.53 |
| CG13054 | DRSC29594 | 0.00714 | 0.545 | -6.72 |
| CG3088 | DRSC10352 | -0.952 | 0.988 | -0.315 |
| Srp19 | DRSC11288 | -0.691 | -1.23 | -0.527 |
| Srp19 | DRSC24706 | -0.571 | -0.0442 | 0.671 |
| lncRNA:sphinx | DRSC17199 | 1.09 | 0.848 | -0.577 |
| Rab32 | DRSC05146 | -1.14 | 0.258 | 0.109 |
| Rab32 | DRSC07522 | 1.02 | 1.21 | 0.0699 |
| Rab32 | DRSC28156 | -0.374 | -0.366 | -0.599 |
| fax | DRSC11345 | -2.53 (active) | -2.45 | -0.78 |
| fax | DRSC27842 | 0.371 | -1.86 | -0.55 |
| CG15530 | DRSC15067 | 0.917 | 0.519 | -5.75 |
| CG15530 | DRSC29873 | 0.136 | -0.244 | 0.554 |
| CG43329 | DRSC11672 | 0.0158 | 0.346 | 0.705 |
| Socs36E | DRSC02455 | -0.0276 | -0.0336 | 0.813 |
| Socs36E | DRSC27917 | -0.592 | -0.19 | -0.109 |
| Slip1 | DRSC17146 | -0.275 | 0.364 | 1.14 |
| pyx | DRSC08510 | -4.05 | -3.65 | -2.44 |
| pyx | DRSC08511 | -0.0862 | -0.0982 | -0.856 |
| pyx | DRSC28167 | 0.619 | -1.01 | 1.32 |
| CG14110 | DRSC10113 | -0.495 | 0.688 | -0.114 |
| CG17580 | DRSC06683 | -3.31 | 0.745 | -1.78 |
| CG17580 | DRSC27009 | -0.747 | 0.186 | -1.18 |
| jvl | DRSC13053 | 0.984 (active) | 2.31 | 2.93 |
| jvl | DRSC15495 | -0.595 | 0.284 | -4.77 |
| jvl | DRSC27452 | 0.771 | 1.17 | 1.81 |
| jvl | DRSC38672 | 0.75 | -2.05 | 1.1 |
| CG6136 | DRSC15975 | -0.409 | -1.01 | 0.302 |
| scro | DRSC17102 | -0.102 | -1.78 | -0.748 |
| Mi-2 + Su(Tpl) | DRSC09640 | 0.353 | 0.654 | 0.0973 |
| Pxd | DRSC16805 | 0.969 | 0.696 | -4.16 |
| CG7011 | DRSC09347 | -0.621 | 1.1 | 0.168 |
| CG7011 | DRSC28334 | 0.00726 | 0.27 | -1.21 |
| NimB3 | DRSC37871 | -1 | -0.401 | -0.302 |
| CG6833 | DRSC10721 | -0.213 | -0.229 | -1.76 |
| CG6833 | DRSC24711 | 0.778 | 1.35 | -0.873 |
| OS9 | DRSC02700 | 0.144 | -0.342 | 0.427 |
| OS9 | DRSC27743 | -0.693 | -1.17 | -0.784 |

Single entries from the entries so far:
CG7860 [DRSC20060], Wolbachia per cell robust z, rep 3 = 0.215
Entry for Socs36E [DRSC27917] under “Wolbachia per cell robust z, rep 2”: -0.19
Entry of jvl [DRSC38672] under “Wolbachia per cell robust z, rep 3”: 1.1
Value for Srp19 [DRSC24706] in “Wolbachia per cell robust z, rep 1”: -0.571
Result of Rab32 [DRSC05146] under “Wolbachia per cell robust z, rep 3”: 0.109
Nup50 [DRSC26470], Wolbachia per cell robust z, rep 1 → 0.0563
